Target: low-density lipoprotein receptor-related protein 1 (LRP1), full-length, purified from human placenta (human) (UniProt Q07954)
Assay: SPR; Biacore 3000; receptor amine-coupled to CM5 chip; ligand flowed in HBS-P (0.01 M HEPES pH 7.4, 0.15 M NaCl, 0.005% P20) with 1 mM CaCl2, 10 ul/min, 25 C; kinetic fit to a 1:1 Langmuir model

Protein sequences, listed by entry. Tags and fused reporters are not part of them. Residues count along the entry.
UniProt Q07954, 20-4544: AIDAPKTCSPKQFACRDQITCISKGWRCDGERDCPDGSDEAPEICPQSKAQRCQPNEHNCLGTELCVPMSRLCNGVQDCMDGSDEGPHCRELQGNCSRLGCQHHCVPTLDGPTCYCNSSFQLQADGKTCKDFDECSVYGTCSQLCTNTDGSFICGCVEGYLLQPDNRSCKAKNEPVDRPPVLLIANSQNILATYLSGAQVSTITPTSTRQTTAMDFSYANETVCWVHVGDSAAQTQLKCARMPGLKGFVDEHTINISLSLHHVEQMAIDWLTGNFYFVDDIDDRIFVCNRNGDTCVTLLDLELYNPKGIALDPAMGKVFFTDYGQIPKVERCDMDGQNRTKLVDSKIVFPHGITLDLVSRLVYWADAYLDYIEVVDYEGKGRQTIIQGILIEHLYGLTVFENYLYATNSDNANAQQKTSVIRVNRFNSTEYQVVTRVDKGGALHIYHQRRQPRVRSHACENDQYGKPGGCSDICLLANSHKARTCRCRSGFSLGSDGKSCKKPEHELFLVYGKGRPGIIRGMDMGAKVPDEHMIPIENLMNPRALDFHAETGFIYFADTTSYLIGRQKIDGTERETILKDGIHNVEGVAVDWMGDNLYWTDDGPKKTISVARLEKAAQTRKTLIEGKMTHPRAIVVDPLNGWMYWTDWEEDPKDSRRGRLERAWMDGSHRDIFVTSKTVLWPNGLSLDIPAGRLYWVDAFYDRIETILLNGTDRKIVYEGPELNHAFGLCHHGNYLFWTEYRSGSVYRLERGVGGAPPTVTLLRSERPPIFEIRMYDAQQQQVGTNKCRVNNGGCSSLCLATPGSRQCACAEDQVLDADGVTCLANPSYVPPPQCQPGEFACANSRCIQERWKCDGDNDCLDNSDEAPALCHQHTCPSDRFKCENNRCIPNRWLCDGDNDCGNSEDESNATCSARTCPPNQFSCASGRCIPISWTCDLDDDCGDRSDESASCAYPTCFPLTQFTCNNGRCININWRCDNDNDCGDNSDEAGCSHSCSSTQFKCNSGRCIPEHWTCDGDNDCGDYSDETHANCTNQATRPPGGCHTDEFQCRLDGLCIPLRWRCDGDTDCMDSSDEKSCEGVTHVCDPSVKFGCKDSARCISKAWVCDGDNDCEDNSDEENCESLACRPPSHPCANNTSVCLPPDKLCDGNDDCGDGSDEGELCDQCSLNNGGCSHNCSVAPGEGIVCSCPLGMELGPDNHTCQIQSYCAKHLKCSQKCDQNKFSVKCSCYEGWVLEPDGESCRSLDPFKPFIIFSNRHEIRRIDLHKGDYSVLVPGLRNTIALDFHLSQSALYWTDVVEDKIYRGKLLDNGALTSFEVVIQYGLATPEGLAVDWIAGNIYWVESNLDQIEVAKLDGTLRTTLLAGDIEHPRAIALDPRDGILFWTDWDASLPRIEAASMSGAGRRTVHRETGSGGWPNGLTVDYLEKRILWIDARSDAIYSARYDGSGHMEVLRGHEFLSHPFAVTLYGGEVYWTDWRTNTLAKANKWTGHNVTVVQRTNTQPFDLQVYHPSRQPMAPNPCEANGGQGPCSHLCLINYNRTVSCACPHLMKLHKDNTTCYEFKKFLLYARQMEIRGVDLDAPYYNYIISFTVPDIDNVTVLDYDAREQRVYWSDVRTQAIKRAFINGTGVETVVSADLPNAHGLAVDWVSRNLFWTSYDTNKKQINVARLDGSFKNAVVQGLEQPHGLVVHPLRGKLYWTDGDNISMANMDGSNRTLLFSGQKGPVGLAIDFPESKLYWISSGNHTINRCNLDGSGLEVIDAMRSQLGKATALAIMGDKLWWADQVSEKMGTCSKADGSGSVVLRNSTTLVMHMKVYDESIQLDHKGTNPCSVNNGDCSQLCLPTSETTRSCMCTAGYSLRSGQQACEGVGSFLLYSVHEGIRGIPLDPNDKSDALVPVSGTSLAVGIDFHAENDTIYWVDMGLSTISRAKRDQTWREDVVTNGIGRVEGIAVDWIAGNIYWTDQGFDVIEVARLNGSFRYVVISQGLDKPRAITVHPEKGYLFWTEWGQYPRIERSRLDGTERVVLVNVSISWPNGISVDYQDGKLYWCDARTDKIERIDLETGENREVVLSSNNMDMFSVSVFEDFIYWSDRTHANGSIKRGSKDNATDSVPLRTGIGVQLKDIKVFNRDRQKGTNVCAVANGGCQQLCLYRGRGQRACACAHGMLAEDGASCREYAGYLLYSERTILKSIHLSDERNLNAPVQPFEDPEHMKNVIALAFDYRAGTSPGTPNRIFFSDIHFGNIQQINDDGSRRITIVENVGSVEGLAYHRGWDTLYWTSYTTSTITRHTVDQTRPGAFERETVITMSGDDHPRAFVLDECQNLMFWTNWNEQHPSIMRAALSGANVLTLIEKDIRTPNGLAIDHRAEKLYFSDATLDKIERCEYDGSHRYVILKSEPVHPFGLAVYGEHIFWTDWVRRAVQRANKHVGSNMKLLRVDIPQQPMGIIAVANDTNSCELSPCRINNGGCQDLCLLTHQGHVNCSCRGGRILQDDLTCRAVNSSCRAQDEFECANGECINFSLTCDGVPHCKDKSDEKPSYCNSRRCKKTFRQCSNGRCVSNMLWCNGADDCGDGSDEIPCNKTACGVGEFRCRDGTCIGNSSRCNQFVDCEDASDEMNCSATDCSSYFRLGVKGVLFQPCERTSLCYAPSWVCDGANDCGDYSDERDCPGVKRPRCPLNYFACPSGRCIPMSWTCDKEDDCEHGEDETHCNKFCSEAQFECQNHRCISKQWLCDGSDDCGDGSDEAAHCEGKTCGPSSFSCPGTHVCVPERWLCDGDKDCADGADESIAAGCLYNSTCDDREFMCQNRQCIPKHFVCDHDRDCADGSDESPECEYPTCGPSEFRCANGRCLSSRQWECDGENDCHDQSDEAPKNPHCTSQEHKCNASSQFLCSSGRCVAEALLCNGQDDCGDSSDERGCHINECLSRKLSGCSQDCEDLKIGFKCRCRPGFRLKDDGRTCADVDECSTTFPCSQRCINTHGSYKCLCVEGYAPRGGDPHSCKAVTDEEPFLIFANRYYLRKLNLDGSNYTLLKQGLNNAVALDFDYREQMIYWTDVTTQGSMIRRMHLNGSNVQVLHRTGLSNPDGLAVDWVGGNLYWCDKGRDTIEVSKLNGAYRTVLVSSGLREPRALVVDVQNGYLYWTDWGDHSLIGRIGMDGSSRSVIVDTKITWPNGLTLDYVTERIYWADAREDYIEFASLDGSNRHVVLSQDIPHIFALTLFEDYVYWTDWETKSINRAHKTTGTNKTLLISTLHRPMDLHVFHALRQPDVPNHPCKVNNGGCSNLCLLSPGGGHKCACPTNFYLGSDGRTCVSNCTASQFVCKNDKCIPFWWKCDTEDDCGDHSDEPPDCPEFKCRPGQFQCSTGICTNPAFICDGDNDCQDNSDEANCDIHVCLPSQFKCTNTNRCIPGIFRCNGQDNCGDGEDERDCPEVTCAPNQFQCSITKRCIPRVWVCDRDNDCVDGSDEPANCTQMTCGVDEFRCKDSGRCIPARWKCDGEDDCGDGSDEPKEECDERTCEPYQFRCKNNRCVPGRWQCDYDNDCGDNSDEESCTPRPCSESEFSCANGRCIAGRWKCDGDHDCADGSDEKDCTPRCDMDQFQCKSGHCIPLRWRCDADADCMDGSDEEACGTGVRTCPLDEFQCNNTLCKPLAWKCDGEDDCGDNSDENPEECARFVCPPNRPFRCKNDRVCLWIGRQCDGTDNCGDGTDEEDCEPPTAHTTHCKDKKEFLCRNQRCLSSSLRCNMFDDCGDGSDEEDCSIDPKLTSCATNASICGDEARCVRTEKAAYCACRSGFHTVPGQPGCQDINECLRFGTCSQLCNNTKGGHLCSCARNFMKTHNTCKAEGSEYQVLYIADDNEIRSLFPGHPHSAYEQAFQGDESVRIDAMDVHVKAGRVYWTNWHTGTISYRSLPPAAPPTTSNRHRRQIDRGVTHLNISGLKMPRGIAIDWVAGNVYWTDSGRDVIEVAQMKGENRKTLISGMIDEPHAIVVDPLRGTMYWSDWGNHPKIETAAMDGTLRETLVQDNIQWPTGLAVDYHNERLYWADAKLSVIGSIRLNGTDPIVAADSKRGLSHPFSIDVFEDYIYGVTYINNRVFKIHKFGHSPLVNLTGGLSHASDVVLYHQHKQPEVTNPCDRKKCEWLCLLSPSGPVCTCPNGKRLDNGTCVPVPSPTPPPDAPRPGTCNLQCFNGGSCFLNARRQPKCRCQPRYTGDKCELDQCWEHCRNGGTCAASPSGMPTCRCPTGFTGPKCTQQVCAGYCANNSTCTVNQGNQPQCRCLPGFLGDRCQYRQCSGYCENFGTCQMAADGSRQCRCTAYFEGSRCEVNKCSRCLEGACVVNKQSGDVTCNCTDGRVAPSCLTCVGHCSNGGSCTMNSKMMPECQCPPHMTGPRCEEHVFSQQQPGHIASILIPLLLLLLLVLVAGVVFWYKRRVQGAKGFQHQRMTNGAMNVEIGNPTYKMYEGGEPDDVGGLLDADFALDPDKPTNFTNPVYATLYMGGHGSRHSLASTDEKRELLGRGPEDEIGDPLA

“SARS-CoV-2 spike protein S1 subunit (Val16-Arg685) fused to the Fc region of mouse IgG1 (from UniProt P0DTC2 16-685) (Fc fusion)” gave a Kd of 38 nM, a koff of 0.00022 s⁻¹ and a kon of 5400 M⁻¹ s⁻¹.

Reference: publication PMC12192683
